# Tests used:
# Sequences of proteins named here, by UniProt entry; tags and fusion partners are left off. Residues count along the entry.
# UniProt Q05941, 23-502 limits assumed: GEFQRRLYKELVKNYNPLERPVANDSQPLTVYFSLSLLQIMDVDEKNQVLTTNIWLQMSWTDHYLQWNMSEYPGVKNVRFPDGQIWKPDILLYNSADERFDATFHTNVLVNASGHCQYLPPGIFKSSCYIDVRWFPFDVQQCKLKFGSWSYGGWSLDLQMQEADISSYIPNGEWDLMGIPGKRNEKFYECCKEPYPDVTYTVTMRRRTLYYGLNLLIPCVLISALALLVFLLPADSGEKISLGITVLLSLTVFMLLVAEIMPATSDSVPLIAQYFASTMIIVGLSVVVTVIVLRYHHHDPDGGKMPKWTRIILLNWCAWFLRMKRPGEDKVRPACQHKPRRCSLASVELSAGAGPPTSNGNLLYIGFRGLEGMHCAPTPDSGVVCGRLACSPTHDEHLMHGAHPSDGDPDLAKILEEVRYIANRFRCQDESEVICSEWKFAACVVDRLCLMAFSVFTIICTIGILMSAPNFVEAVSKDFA
# α7 nAChR = α7 nAChR (Rattus norvegicus, UniProt Q05941)
# [1] = test system: neuronal nAChRs (α3β4, α3β2, α7 subtypes); test: nAChR subtypes expressed in Xenopus oocytes, electrophysiological currents; settings: generally by several orders of magnitude
smiles,measurement,setting,value
CC(C)C[C@@H]1NC(=O)[C@H](CO)NC(=O)[C@@H]2CSSC[C@@H](C(N)=O)NC(=O)[C@H](Cc3ccc(O)cc3)NC(=O)[C@H](CC(=O)O)NC(=O)[C@@H]3CCCN3C(=O)[C@H](CC(N)=O)NC(=O)[C@H](CO)NC(=O)[C@H](C)NC(=O)[C@H](C)NC(=O)[C@H](CSSC[C@H](NC(=O)CN)C(=O)N2)NC(=O)[C@@H]2CCCN2C(=O)[C@@H]2CCCN2C1=O,IC50,α7 nAChR,1700 nM
same,nAChR subtype for which the peptide has higher specificity,[1],α3β2-containing subtype
